# Results as given in US4740501A (priority 1985, dated 1988).
# Where “and” joins values, the source holds several entries; their conditions need not be identical. Equal values may be shown once.
# Legend:
# [1] = system: MMTV polypeptides; assay: Polypeptide composition of extracellular MMTV (NaDodSO4-PAGE); format: cell-based, mouse; conditions: 15 uM
# [2] = system: MMTV; assay: MMTV production by MJY-alpha cells (radiolabel in purified virus); format: cell-based, mouse; conditions: 15.0 uM
substance,measurement,setting,value
L-phenyl-alanine mustard,polypeptide profiles of MMTV vs virions from control monolayers,[1]; 24 and 48 hour,relatively similar
same,"p 24, figure in brackets (level relative to control)",[1]; [3H] Leu (0-24 hr),80.2%
same,"p 24, figure in brackets (level relative to control)",[1]; [35S] met (24-48 hr),81.4
same,Relative level of MMTV produced (%),[2]; 24 hours,71.7%
same,Relative level of MMTV produced (%),[2]; 48 hours,97% and 96.5%
